Source: patent publication US20130309248A1 (CRUCELL HOLLAND B V, published 2013)

Experiments:
[1] = biological target: T1, HA of virus A/Hong Kong/1/68 (H3N2) (influenza A virus (H3N2), UniProt Q91MA7 17-566); assay: cell-based or functional assay
[2] = biological target: T1, HA of virus A/Hong Kong/1/68 (H3N2); assay: cell-based or functional assay; remark: listed apart in the source

B1: CR8041 (antibody, V domains shown)
VH: QVQLVQSGAEVKKPGASVKVSCQASGYTFTSFGLSWVRQAPGQGPEWMGWISAYNGEIKYAQKFQGRVSMTTDTSTRTAYMEVRSLRPDDTAVYYCAREPPLYFSSWSLDF
VL: EIVLTQSPGTLSLSPGERATLSCRASQSVSSNYLAWFQQKPGQAPRLLIYGASRRATGIPDRFSGSGSGTDFTLTISRLEPEDFAVYYCQQYDSSPRT
**Q.** Which “Neutralization titer SK50” value [1] does the source give for B1 here?
**A.** Its value is 1.05 µg/mL.

**Q.** And the SK50 titer [2]?
**A.** Its SK50 titer is 1.7 µg/mL.
